Source: patent publication US9957247B2, “SecA inhibitors and methods of making and using thereof” (Georgia State University Research Foundation, Inc., priority 2012, dated 2018)

Protein sequences, listed by entry. Tags and fused reporters are not part of them. Residues count along the entry.
UniProt P10408, 1-610 limits assumed: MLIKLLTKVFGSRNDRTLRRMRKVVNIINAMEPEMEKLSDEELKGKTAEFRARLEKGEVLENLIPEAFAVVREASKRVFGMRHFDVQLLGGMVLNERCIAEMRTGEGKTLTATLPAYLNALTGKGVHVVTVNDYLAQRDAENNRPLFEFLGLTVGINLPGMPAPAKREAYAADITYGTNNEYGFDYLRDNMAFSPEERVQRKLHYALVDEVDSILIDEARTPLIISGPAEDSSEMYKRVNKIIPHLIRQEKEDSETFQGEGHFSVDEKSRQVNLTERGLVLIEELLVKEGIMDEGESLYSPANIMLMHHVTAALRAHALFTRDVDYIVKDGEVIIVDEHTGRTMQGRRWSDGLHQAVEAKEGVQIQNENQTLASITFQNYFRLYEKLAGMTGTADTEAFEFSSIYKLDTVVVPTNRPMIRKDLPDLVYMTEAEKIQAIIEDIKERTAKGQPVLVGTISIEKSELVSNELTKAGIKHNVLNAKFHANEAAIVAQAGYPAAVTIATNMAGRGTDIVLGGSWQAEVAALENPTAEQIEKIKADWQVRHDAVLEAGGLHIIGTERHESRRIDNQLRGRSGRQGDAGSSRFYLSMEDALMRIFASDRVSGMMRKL
UniProt P10408, whole entry, looked up: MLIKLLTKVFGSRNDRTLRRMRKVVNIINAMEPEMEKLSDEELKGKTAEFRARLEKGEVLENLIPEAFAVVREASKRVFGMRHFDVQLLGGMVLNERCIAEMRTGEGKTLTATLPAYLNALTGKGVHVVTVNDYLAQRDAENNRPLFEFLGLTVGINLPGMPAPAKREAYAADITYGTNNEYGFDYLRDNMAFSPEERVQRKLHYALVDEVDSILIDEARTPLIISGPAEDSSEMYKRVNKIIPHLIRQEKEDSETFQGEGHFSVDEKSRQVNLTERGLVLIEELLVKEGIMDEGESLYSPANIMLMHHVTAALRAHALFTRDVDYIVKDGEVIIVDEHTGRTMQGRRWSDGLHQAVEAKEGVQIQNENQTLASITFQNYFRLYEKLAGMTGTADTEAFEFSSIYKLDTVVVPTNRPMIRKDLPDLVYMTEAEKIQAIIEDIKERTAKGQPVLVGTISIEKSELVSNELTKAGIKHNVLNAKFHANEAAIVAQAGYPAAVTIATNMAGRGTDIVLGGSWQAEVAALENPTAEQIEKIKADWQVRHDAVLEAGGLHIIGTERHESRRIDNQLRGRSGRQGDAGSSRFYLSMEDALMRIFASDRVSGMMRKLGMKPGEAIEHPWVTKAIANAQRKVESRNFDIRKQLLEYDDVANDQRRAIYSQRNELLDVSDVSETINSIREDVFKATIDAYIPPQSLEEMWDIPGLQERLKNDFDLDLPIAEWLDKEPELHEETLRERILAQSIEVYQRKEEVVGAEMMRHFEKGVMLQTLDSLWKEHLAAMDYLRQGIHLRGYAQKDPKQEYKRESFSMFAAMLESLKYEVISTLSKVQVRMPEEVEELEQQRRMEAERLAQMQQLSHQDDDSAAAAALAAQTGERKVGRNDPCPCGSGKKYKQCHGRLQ

What was measured:
EcSecA N68 = EcSecA N68 (Escherichia coli, UniProt P10408); assay: Intrinsic ATPase of truncated EcSecA N68 (EcN68, unregulated ATPase); type: biochemical, E. coli; conditions: read-out: IC50, EcN68 SecA ATPase (unregulated ATPase); Example 1, fluorescein analogs
EcSecA = EcSecA (Escherichia coli, UniProt P10408); conditions: read-out: IC50, in vitro protein translocation; according to a previous report; cited from earlier work

## [N-]=[N+]=[N-]
EcSecA N68
  IC50: > 10 µM
EcSecA
  IC50: 600 µM
